B1: 54-4H03 VH I96M/N99G/G100cT/S100fY, IgG (54-4H03 light chain) (antibody, V domains shown)
VH: QVQLQQSGPGLVKPSQTLSLTCAISGDSVSSNSVAWNWIRQSPSRGLEWLGRTYFRSKWYTDYAESLKSRMTINPDTSKNEFSLHLKSVTSDDTAVYYCVRGMIFGWPLTGWYFDLWGRGTLVSVSS
VL: EIVLTQSPGTLSLSPGDSATLSCRASQSVASSYLAWYQQKPGQSPRLLIYATINRAADIPDRFSGSGSGTDFALTISRLEPEDFAVYYCQQFDSSSMYTFGQGTKLEIT
B2: 54-4H03 VH I96M/N99G/G100cT/S100fY paired with the light chain from 54-1G07, IgG (antibody, V domains shown)
VH: B1 VH
VL: EIVLTQSPGTLSLSPGERVTLLCRASHHVSSGYLAWYQQKPGQAPRLLIYGATNRATGIPDRFSGSGSGTDFALTISRLEPEDFAVYYCQQFDSSSMYTFGQGTKLEIK
B3: 54-1G05 VL T28N/Y30A/N30aV, IgG (antibody, V domains shown)
VH: QVQLQQSGPRLVKPSQTLSLTCAISGDSVSSSSAVWTWIRQSPSRGLEWLGRTYYRSKWYDDYAVSVQGRITINPDTSKNQISLQLNSVTPDDTAVYYCARSSINIFGVFVMAMDVWGQGTAVTVSS
VL: EIVLTQSPGTLSLSPGERVTLSCRASQNVAVSYLAWYQQKPGQAPTLLIYGTSTRATGVPDRFSGSGSGTVFTLTISRLEPEDFAVYFCQQYSTSPRALTFGGGTKVEIK

Each binder was assayed against recombinant HA of H5N1 A/Indonesia/05/2005, biotinylated (Influenza A virus A/Indonesia/05/2005 …, UniProt C5MRF2, strain, biotin). Settings: both partners purified.
B1: binds.
B2: binds.
B3: binds.

The binders below were run against recombinant HA of H7N9 A/Shanghai/02/2013, biotinylated (Influenza A virus A/Shanghai/02/2013 …, UniProt R4NN21, strain, biotin). Settings: both partners purified.
B1: no binding.
B2: no binding.
B3: binds.

Reference: article PMC7486241 (Cell Host & Microbe, 2020)
